Source: article PMC3204966

How the values were obtained:
[1] = test system: O=P(O)(O)O[C@H]1O[C@H](CO)[C@@H](O)[C@H](O)[C@@H]1O; assay: purified protein; details: pH 7.55; 25.0 °C
[2] = test system: Nc1nc2c(ncn2[C@@H]2O[C@H](COP(=O)(O)OP(=O)(O)O[C@H]3O[C@H](CO)[C@@H](O)[C@H](O)[C@@H]3O)[C@@H](O)[C@H]2O)c(=O)[nH]1; assay: purified protein; details: pH 7.55; 25.0 °C

Row | Substance | Km [1] [µM] | Vmax [1] [µmol/min] | Km [2] [µM] | Vmax [2] [µmol/min]
1 | CBU0294 (PMM) (Coxiella burnetii RSA 493) | 228 | 44 | – | –
2 | CBU0671 (type II PMI; PMI/GMP) (Coxiella burnetii RSA 493) | – | – | 379 | 0.757
